# From publication PMC9330476 (Toxins, 2022)
# This is a selection: effects in other tests are not listed, and their absence says nothing.
# Experiments:
# [1] = target: m(α1)2β1δγ nAChR (mouse fetal muscle) (Mus musculus, UniProt P02716+P04756+P04760+P09690); experiment: Two-electrode voltage clamp, inhibition of ACh-evoked currents, mouse fetal muscle nAChR in Xenopus oocytes; type: cell-based; details: 600 nM, 5 min incubation then washout, agonist stimulation at one-minute intervals
# [2] = system: nAChR subtypes (hα7, hα4β2, hα3β2, m(α1)2β1δγ, and m(α1)2β1δε); experiment: Two-electrode voltage clamp, nAChR subtype panel in Xenopus oocytes
# [3] = target: m(α1)2β1δε nAChR (mouse adult muscle) (Mus musculus, UniProt P02716+P04756+P09690+P20782); experiment: Two-electrode voltage clamp, inhibition of ACh-evoked currents, mouse adult muscle nAChR in Xenopus oocytes; details: 600 nM, 5 min incubation then washout, agonist stimulation at one-minute intervals
smiles,measurement,setting,value
CC[C@H](C)[C@H](NC(=O)[C@H](CCCNC(=N)N)NC(=O)[C@H](C)NC(=O)[C@@H](N)CCC(=O)O)C(=O)N[C@H](C(=O)N[C@H]1CSSC[C@@H]2NC(=O)[C@H](CSSC[C@@H]3NC(=O)[C@H](Cc4ccc(O)cc4)NC(=O)[C@H](CC(N)=O)NC(=O)CNC(=O)[C@H](CSSC[C@@H]4NC(=O)[C@H](CCCNC(=N)N)NC(=O)[C@@H]5CSSC[C@@H](C(=O)O)NC(=O)[C@H](CO)NC(=O)[C@H](CSSC[C@H](NC3=O)C(=O)N[C@@H](Cc3ccc(O)cc3)C(=O)N[C@@H](CCCCN)C(=O)N[C@@H](Cc3c[nH]cn3)C(=O)NCC(=O)N5)NC(=O)CNC(=O)[C@H](Cc3c[nH]cn3)NC(=O)CNC(=O)[C@H](CCCNC(=N)N)NC(=O)[C@H](Cc3c[nH]c5ccccc35)NC(=O)[C@H](CO)NC(=O)[C@H](Cc3c[nH]cn3)NC(=O)[C@H](Cc3ccc(O)cc3)NC(=O)[C@H](C(C)C)NC4=O)NC(=O)[C@H](CCSC)NC(=O)[C@H](CCC(N)=O)NC(=O)[C@H]([C@@H](C)O)NC(=O)[C@H](CC(C)C)NC2=O)NC(=O)[C@H](CCCNC(=N)N)NC(=O)CNC(=O)[C@H](Cc2c[nH]c3ccccc23)NC(=O)[C@H](CCCCN)NC(=O)[C@H](CO)NC(=O)[C@H](CCCNC(=N)N)NC(=O)CNC(=O)[C@H](CCCNC(=N)N)NC(=O)[C@@H]2CCCN2C(=O)[C@H](CCC(N)=O)NC(=O)[C@@H](NC(=O)[C@@H](NC(=O)[C@@H](NC(=O)[C@H](CCCNC(=N)N)NC(=O)[C@H](C)NC(=O)[C@@H](N)CCC(=O)O)[C@@H](C)CC)[C@@H](C)O)CSSC[C@@H]2NC(=O)[C@H](CSSC[C@@H]3NC(=O)[C@H](Cc4ccc(O)cc4)NC(=O)[C@H](CC(N)=O)NC(=O)CNC(=O)[C@H](CSSC[C@@H]4NC(=O)[C@H](CCCNC(=N)N)NC(=O)[C@@H]5CSSC[C@@H](C(=O)O)NC(=O)[C@H](CO)NC(=O)[C@H](CSSC[C@H](NC3=O)C(=O)N[C@@H](Cc3ccc(O)cc3)C(=O)N[C@@H](CCCCN)C(=O)N[C@@H](Cc3c[nH]cn3)C(=O)NCC(=O)N5)NC(=O)CNC(=O)[C@H](Cc3c[nH]cn3)NC(=O)CNC(=O)[C@H](CCCNC(=N)N)NC(=O)[C@H](Cc3c[nH]c5ccccc35)NC(=O)[C@H](CO)NC(=O)[C@H](Cc3c[nH]cn3)NC(=O)[C@H](Cc3ccc(O)cc3)NC(=O)[C@H](C(C)C)NC4=O)NC(=O)[C@H](CCSC)NC(=O)[C@H](CCC(N)=O)NC(=O)[C@H]([C@@H](C)O)NC(=O)[C@H](CC(C)C)NC2=O)NC(=O)[C@H](CCCNC(=N)N)NC(=O)CNC(=O)[C@H](Cc2c[nH]c3ccccc23)NC(=O)[C@H](CCCCN)NC(=O)[C@H](CO)NC(=O)[C@H](CCCNC(=N)N)NC(=O)CNC(=O)[C@H](CCCNC(=N)N)NC(=O)[C@@H]2CCCN2C(=O)[C@H](CCC(N)=O)NC1=O)[C@@H](C)O [αD-FrXXA],reversibility on fetal muscular nAChR,[1],slightly reversible
same,IC50 range for all subtypes of nAChRs,"[2]; concentration-response curves, Xenopus oocytes",in the order of nM for all subtypes of nAChRs
same,affinity preference among nAChR subtypes,"[2]; hα7 versus the other subtypes, from IC50s",higher affinity for the neuronal α7 nAChR subtype
same,preference against neuronal rather than muscular nAChRs,[2]; neuronal versus muscular nAChRs,slightly inhibitory activity preference against neuronal rather than muscular nAChRs
same,reversibility on adult muscular nAChR,[3],slightly reversible
